Measured values from several laboratories, pooled; numbers as filed in NIAID ChemDB.

All rows: whole-cell or culture tests; agent: Mycobacterium tuberculosis

MIC50, MIC90 and the like: level of inhibition, or share of isolates inhibited. ECn is the concentration giving n% inhibition of infection, replication or growth. Blank or dashed fields: not listed here. a–b is a range or a potency band. Percent inhibition refers to the dose given; in toxicity tests it is the harm to the cells. MIC bound comes from a single tested concentration. Lines come from different laboratories, so protocols vary.

SMILES	method	dose	changes	strain or isolate	measure	result
CCc1ccccc1NC(=O)C(=O)CC(=O)c1sc(Nc2ccccc2)nc1C	resazurin			H37Rv	MIC bound	>6.25 µg/mL
N#Cc1c(N2CCN(c3ccc([N+](=O)[O-])cc3)CC2)[n+](=O)c2ccc(-c3ccc([N+](=O)[O-])cc3)cc2n1[O-]				H37Rv	EC50	<6.25 µg/mL
N#Cc1ccnc(N2CCCCC2)c1				331/81	MIC	500 µM
COc1cccc2c1C(=O)c1ccc3cc(C)cc(O)c3c1C2=O	GFP			H37Ra	EC50	19.7 µM
Cc1ccc(/C=N/N=C(/N)c2ccccn2)cc1				1814 (THC-resistant)	MIC	32 µg/mL
N#CCCSc1ccnc(C(N)=S)c1				331/81	MIC	250 µM
O=C(N[C@@H](CO)C(=O)N/N=C/c1ccc(O)c(O)c1)OCc1ccccc1	resazurin			H37Rv	MIC	>100 µg/mL
CCCCCCCCCCCCOc1ccc(Cc2cnc(N)nc2N)cc1OC				H37Rv	MIC	19.3 µM
Cc1c(CN2CCN(C)CC2)cc(-c2ccccc2)n1-c1cccc2ccccc12				103471	MIC	>16 µg/mL
N/C(=N/N=C/c1ccccc1Cl)c1ccccn1				1814 (THC-resistant)	MIC	16 µg/mL
COc1ccc2c(c1)n([O-])c(C#N)c(N1CCN(c3ccc([N+](=O)[O-])cc3)CC1)[n+]2=O		6.25 µg/mL		H37Rv	inhibition	100%
O=C1C(CO)=C[C@@H](O)[C@@H]2O[C@H]12	BACTEC	12.5 µg/mL		H37Rv	inhibition	11%
NNC(=O)c1ccncc1				Isolate 2	MIC	16 µg/mL
Nc1ncc(F)c2c1ncn2[C@@H]1O[C@H](CO)[C@@H](O)[C@H]1O				SRICK1	MIC	>100 µg/mL
O=C(c1ccncc1)N(/N=C/c1cccc(Cl)c1)C(=O)c1cnccn1				9 isolates (sensitive)	MIC	0.5–1 µg/mL
NC(=S)c1ccnc(N2CCCCC2)c1				331/81	MIC	500 µM
O=C(CCSCCC(=O)N/N=C/C(O)C(O)C(O)CO)N/N=C/C(O)C(O)C(O)CO	BACTEC	12.5 µg/mL		H37Rv	inhibition	0%
Cc1c(CN2CCSCC2)cc(-c2ccccc2Cl)n1-c1ccccc1F				103471	MIC	4 µg/mL
COC(=O)c1cc(=O)c2c(ccc3oc(=O)ccc32)[nH]1	BACTEC	12.5 µg/mL		H37Rv	inhibition	-16%
CCCCS(=O)(=O)Nc1ccc2[nH]c(C(=O)NCC(C)C)c(C)c2c1	resazurin			H37Rv	MIC90	12.5 µM
C[C@@H]1CN(c2c(F)c(N)c3c(=O)c(C(=O)O)cn(C4CC4)c3c2F)C[C@H](C)N1				H37Rv	MIC	0.32 µg/mL
CCOC(=O)CSc1ccnc(C(N)=S)c1				331/81	MIC	500 µM
NC(=O)c1cnccn1				H37Rv	MIC	25 µg/mL
NC(=S)c1cc(N2CCCCC2)ccn1				331/81	MIC	500 µM
CCCN1CCN(c2cc(=O)c3nc4c(oc3c2)c2c(=O)c3c(O)c(C)c5c(c34)=C(O)[C@@](C)(O/C=C/[C@H](OC)[C@@H](C)[C@@H](OC(C)=O)[C@H](C)[C@H](O)[C@H](C)[C@@H](O)[C@@H](C)/C=C/C=C(/C)C(=O)N2)O5)CC1				6 strains (rifampicin-resistant)	MIC90	0.025 µg/mL
COC(=O)C1C(OC(C)=O)C(C)C(O)C(C)(O)/C=C(\C)C2=C3C(=C(C)C(=O)c4c(O)c(c(C)c(OC(C)=O)c43)NC(=O)/C(C)=C/C=C\[C@](C)(O)C(O)[C@@H](C)C1O)OCO2				EMB-R	MIC	3.1 µg/mL
O=C(N[C@@H](CO)C(=O)N/N=C/c1cc(O)ccc1O)OCc1ccccc1	resazurin			H37Rv	MIC	>100 µg/mL
COc1ccc(OC)c(/C=C2/N=C(c3ccc(C)cc3)OC2=O)c1	resazurin			H37Rv	MIC	4 µg/mL
O=C(c1ccncc1)N(/N=C/c1ccccc1Cl)C(=O)c1cnccn1				H37Rv	MIC	0.25 µg/mL
COc1cc2c(cc1Cl)n([O-])c(C#N)c(N1CCN(c3ccc([N+](=O)[O-])cc3)CC1)[n+]2=O				H37Rv	EC50	<6.25 µg/mL
CCC(C)N1CCN(c2cc(=O)c3nc4c(oc3c2)c2c(=O)c3c(O)c(C)c5c(c34)=C(O)[C@@](C)(O/C=C/[C@H](OC)[C@@H](C)[C@@H](OC(C)=O)[C@H](C)[C@H](O)[C@H](C)[C@@H](O)[C@@H](C)/C=C/C=C(/C)C(=O)N2)O5)CC1				16 strains (rifampicin-susceptible)	MIC90	3.13 µg/mL
O=C(c1ccncc1)N(/N=C/c1cccc([N+](=O)[O-])c1)C(=O)c1cnccn1				9 isolates (sensitive)	MIC	1–2 µg/mL
CC(C)(C)OC(=O)N[C@@H](CO)C(=O)N/N=C/c1ccc(O)c(O)c1	resazurin			H37Rv	MIC	>100 µg/mL
COc1ccc(/C=N/N(C(=O)c2ccncc2)C(=O)c2cnccn2)cc1				H37Rv	MIC	1 µg/mL
CCCCCCCCCCCC(=O)C1=C(O)[C@H](CCO)NC1=O				H37Rv (ATCC 27294)	MIC	2.5 µg/mL
COc1ccc(CNN(C(=O)c2ccncc2)C(=O)c2cnccn2)cc1				9 isolates (sensitive)	MIC	0.125–0.25 µg/mL
Nc1nc(F)c(F)c2c1NCN2[C@@H]1O[C@H](CO)[C@@H](O)[C@H]1O				H37Ra	MIC	>100 µg/mL
[O-]N(O)O.c1c(N2CCOCC2)ssc1=[N+]1CCOCC1	BACTEC			H37Rv	MIC bound	>12.5 µg/mL
CCCCS(=O)(=O)Nc1ccc2[nH]c(C(=O)OCC)c(C)c2c1	resazurin			H37Rv	MIC90	0.19 µM
NNC(=O)CNC(=O)OCc1ccccc1	BACTEC			H37Rv	MIC bound	>12.5 µg/mL
NNC(=O)c1ccncc1	GFP			H37Ra	MIC	0.69 µM
Cc1c(CN2CCSCC2)cc(-c2ccccc2F)n1-c1cccc2ccccc12				103471	MIC	4 µg/mL
CCCCS(=O)(=O)Nc1ccc2[nH]c(C(N)=O)c(C)c2c1	resazurin		I145T DG167-resistant	DRM167 8x3	MIC90	>100 µM
CCN(CC)c1ccc(/C=C2/N=C(c3ccc(C)cc3)OC2=O)cc1	resazurin			H37Rv	MIC	4 µg/mL
CC(C)(C)OC(=O)N[C@@H](CO)C(=O)N/N=C/c1ccc(C#N)cc1	resazurin			H37Rv	MIC	>100 µg/mL
CCCCCCCCCOc1ccc(Cc2cnc(N)nc2N)cc1OC				H37Rv	MIC	10.7 µM
COc1cc2c(cc1Cl)[n+]([O-])c(C#N)c(N)[n+]2[O-]				H37Rv	EC50	<6.25 µg/mL
O=C1c2ccccc2C(=O)c2c(Nc3ccc(S(=O)(=O)N(CCO)CCO)cc3)ccc(O)c21	BACTEC	12.5 µg/mL		H37Rv	inhibition	-12%
COc1cc(/C=N/N=C(\N)c2ccccn2)cc(OC)c1				H37Rv	MIC	250 µg/mL
S=C(S)NCC1CCC(CNC(=S)S)CC1	BACTEC			H37Rv	MIC	128 µg/mL
CO[C@H]1/C=C/O[C@@]2(C)Oc3c(C)c(O)c4c(O)c(c5c(c4c3C2=O)NC2(CCN(CC(C)C)CC2)N=5)=NC(=O)/C(C)=C\C=C\[C@H](C)[C@H](O)[C@@H](C)[C@@H](O)[C@@H](C)[C@H](OC(C)=O)[C@@H]1C				1 isolates	MIC	5 µg/mL
Nc1ccc2c(c1)N(C(=O)c1cc3cc(NC(=O)c4cc5ccccc5o4)ccc3[nH]1)CC2CCl	BACTEC	6.25 µg/mL		H37Rv	inhibition	98%
CCCCS(=O)(=O)Nc1ccc2[nH]c(C#N)c(C)c2c1	resazurin		A119T DG167-resistant	DRM167 8x2	MIC90	>100 µM
COc1cc(Cc2cnc(N)nc2N)ccc1OCCCc1ccccc1				H37Rv	MIC	22 µM
N/C(=N/N=C/c1ccccc1Br)c1ccccn1				1814 (THC-resistant)	MIC	16 µg/mL
C[C@H]1COc2c(N3CCN(C)CC3)c(F)cc3c(=O)c(C(=O)O)cn1c23				Isolate 5	MIC	0.5 µg/mL
Cc1c(CN2CCSCC2)cc(-c2cccc3ccccc23)n1-c1ccccc1				103471	MIC	>16 µg/mL
Cc1ccc(C2=N/C(=C/c3ccc([N+](=O)[O-])cc3)C(=O)O2)cc1	resazurin			H37Rv	MIC	8 µg/mL
CC(C)CNC(=O)CCc1cccc2c1oc1c(CCN)cccc12	BACTEC	12.5 µg/mL		H37Rv	inhibition	3%
N/C(=N/N=C/c1ccc(Cl)cc1)c1ccccn1				1062 (THC-resistant)	MIC	64 µg/mL
CC1=NN(C(=O)c2ccncc2)C(=O)C1	resazurin	6.25 µg/mL		H37Rv	inhibition	5%
CCCCCCCCCCCOc1ccc(Cc2cnc(N)nc2N)cc1OC				H37Rv	MIC	20 µM
O=C1C2=C(OCO2)C(=O)c2[nH]ncc21	BACTEC	12.5 µg/mL		H37Rv	inhibition	65%
CCCCS(=O)(=O)Nc1ccc2[nH]c(C(=O)NCCc3ccccc3)c(C)c2c1	resazurin			H37Rv	MIC90	>100 µM
Nc1nccc2c1ncn2[C@@H]1O[C@H](CO)[C@@H](O)[C@H]1O				SRICK1::ADOK	MIC	>100 µg/mL
CO[C@H]1/C=C/O[C@@]2(C)Oc3c(C)c(O)c4c(O)c(c(/C=N/N5CCN(C)CC5)c(O)c4c3C2=O)NC(=O)/C(C)=C\C=C\[C@H](C)[C@H](O)[C@@H](C)[C@@H](O)[C@@H](C)[C@H](OC(C)=O)[C@@H]1C	resazurin		Multidrug-resistant	FJ05120	MIC	>256 µg/mL
CC(C)(C)OC(=O)N[C@@H](CO)C(=O)N/N=C/c1ccccc1O	resazurin			H37Rv	MIC	>100 µg/mL
N#Cc1nc2cc(Cl)ccc2nc1N1CCN(c2ccc([N+](=O)[O-])cc2)CC1				H37Rv	EC50	>6.25 µg/mL
C[C@@H]1CN(c2c(F)c(N)c3c(=O)c(C(=O)O)cn(C4CC4)c3c2F)C[C@H](C)N1				Isolate 10	MIC	4 µg/mL
CC1=CC(=Nc2ccc(N(C)C)cc2)C=C(C)C1=O	resazurin	6.25 µg/mL		H37Rv	inhibition	101%
CCCCCCCCCCOc1ccc(Cc2cnc(N)nc2N)cc1OC				H37Rv	MIC	15.5 µM
O=C(CCCC(=O)N/N=C/c1ccc(O)cc1O)N/N=C/c1ccc(O)cc1O	BACTEC			H37Rv	MIC bound	>12.5 µg/mL
Cc1ccc(C2=N/C(=C/c3ccc(N(C)C)cc3)C(=O)O2)cc1	resazurin			H37Rv	MIC	4 µg/mL
CCCCS(=O)(=O)Nc1ccc2[nH]c(C(=O)NCc3ccc(Cl)cc3)c(C)c2c1	resazurin			H37Rv	MIC90	>100 µM
O=c1c2c(-c3cc(-c4ccccc4)nc4[nH]n(-c5ccccc5)c(=O)c34)cc(-c3ccccc3)nc2[nH]n1-c1ccccc1	BACTEC	12.5 µg/mL		H37Rv	inhibition	77%
Cc1cc2c(cc1C)[n+](=O)c(N1CCN(c3ccc([N+](=O)[O-])cc3)CC1)c(C#N)n2[O-]				H37Rv	MIC	>0.2 µg/mL
COc1cccc(/C=N/NC(=O)[C@H](CO)NC(=O)OCc2ccccc2)c1O	resazurin			H37Rv	MIC	100 µg/mL
CC(=O)N1c2ccccc2C2=NN=C(N(C)C)SC21	resazurin	6.25 µg/mL		H37Rv	inhibition	93%
N#CCCSc1ccnc(C#N)c1				331/81	MIC	250 µM
CC1(C2CCC3C4CCC5OC(=O)CCC5(C)C4CCC32C)SCCS1	BACTEC			H37Rv	MIC bound	>12.5 µg/mL
N#Cc1nc2cc(Cl)ccc2nc1Cl				H37Rv	EC50	<6.25 µg/mL
CCN(CC)CCCNc1cc(C)nc(C)c1	resazurin			H37Rv	MIC bound	>6.25 µg/mL
Cc1ccc(/C=C2/N=C(c3ccc(C)cc3)OC2=O)cc1	resazurin			H37Rv	MIC	16 µg/mL
Nc1ccc(C(=O)O)c(O)c1		0.76 µM		7800	inhibition	74%
COc1ccc(/C=C2/N=C(c3ccc(C)cc3)OC2=O)cc1	resazurin			H37Rv	MIC	4 µg/mL
CCCCCCCCCCCCOC(=O)C[n+]1ccc(C(N)=O)cc1	resazurin	6.25 µg/mL		H37Rv	inhibition	-18%
N/C(=N/N=C/c1ccc(Br)cc1)c1ccccn1				1814 (THC-resistant)	MIC	32 µg/mL